Compound potency records, mixed from different reports. Data source: NIAID ChemDB in PubChem.

Common to all: whole-cell or culture tests; species: Aspergillus niger; read by: agar; endpoint: MIC

Blank or dashed fields: not listed here.

compound,strain,result
COc1ccc(-c2n[nH]c(-c3cn(C4CCN(C)CC4)nn3)n2)cc1,-,20 µg/mL
Clc1ccccc1-c1n[nH]c(CN2CCc3sccc3C2)n1,NCIM 1196,150 µg/mL
CCN1CCC(n2cc(-c3nc(-c4ccc(OC)cc4)n[nH]3)nn2)CC1,-,50 µg/mL
CCC(=O)N1CCC(n2cc(CN3CCc4sccc4C3)nn2)CC1,NCIM 1196,>200 µg/mL
N#Cc1ccc(Nc2nc(Oc3cccc4cccnc34)nc(N3CCN(c4ccccn4)CC3)n2)cc1C(F)(F)F,MTCC 282,12.5 µg/mL
Nc1ccc(C2SCC(=O)N2c2ccc(Cl)cc2)cc1,NCIM 742,71 µg/mL
CCOc1ccc(NC(=O)CSc2nnc(-c3ccc4ncccc4c3)o2)cc1,-,50 µg/mL
CC1=[N+](C)N(c2ccccc2)C(=O)C1Nc1nc(Nc2ccc(C#N)cc2)nc(Oc2cc(=O)n(C)c3ccccc23)n1,MTCC 2825,200 µg/mL
O=C(CSc1nnc(-c2ccc3ncccc3c2)o1)Nc1ccccc1,-,100 µg/mL
COc1cc(-c2nnc(Sc3nc(Nc4ccc(C#N)cc4)nc(Oc4cc(=O)n(C)c5ccccc45)n3)o2)cc(OC)c1OC,MTCC 2825,25 µg/mL
NS(=O)(=O)c1ccc(N2C(=O)CSC2c2ccccc2Cl)cc1,NCIM 742,17 µg/mL
CC(C)(C)OC(=O)N1CCC(n2cc(-c3nc(-c4ccccc4)n[nH]3)nn2)CC1,-,>200 µg/mL
COc1ccc(NC(=O)CSc2nnc(-c3ccc4ncccc4c3)o2)cc1,-,100 µg/mL
Fc1ccc(Cc2nc(CN3CCc4sccc4C3)n[nH]2)cc1,NCIM 1196,12.5 µg/mL
Cn1c(=O)cc(Oc2nc(Nc3ccc(C#N)cc3)nc(Oc3cc(=O)n(C)c4ccccc34)n2)c2ccccc21,MTCC 2825,100 µg/mL
N#Cc1ccc(Nc2nc(Oc3cccc4cccnc34)nc(N3CCOCC3)n2)cc1C(F)(F)F,MTCC 282,6.25 µg/mL
CC(=O)N1CCN(c2ccc(OC[C@H]3CO[C@](Cn4ccnc4)(c4ccc(Cl)cc4Cl)O3)cc2)CC1,MTCC 282,≤3 µg/mL
CCOc1ccc2nc(NC(=O)CSc3nnc(-c4ccc5ncccc5c4)o3)sc2c1,-,25 µg/mL
c1ccc(N/N=C2/c3ccccc3OCC2n2cncn2)cc1,PTCC 5012,16 µg/mL
Cc1cccc(N2C(=O)CSC2c2ccccn2)n1,NCIM 742,75 µg/mL
CC(=O)N1CCC(n2cc(-c3nc(-c4ccc(C)cc4)n[nH]3)nn2)CC1,-,35 µg/mL
O=C(CSc1nnc(-c2ccc3ncccc3c2)o1)Nc1nc2ccccc2s1,-,100 µg/mL
O=C(c1ccccc1)N1CCC(n2cc(-c3nc(-c4ccccc4)n[nH]3)nn2)CC1,-,>200 µg/mL
C=CCc1ccc(O)c(OC)c1,-,80 µg/mL
COc1ccc2nc(Nc3nc(Nc4ccc(C#N)cc4)nc(Oc4cc(=O)n(C)c5ccccc45)n3)sc2c1,MTCC 2825,100 µg/mL
O=C1CSC(c2ccccn2)N1c1ccc(Cl)cn1,NCIM 742,68 µg/mL
CC1Oc2ccccc2C(=O)C1n1ccnc1,PTCC 5012,>64 µg/mL
Cn1c(=O)cc(Oc2nc(Nc3ccc(C#N)cc3)nc(Oc3cc(=O)oc4ccccc34)n2)c2ccccc21,MTCC 2825,200 µg/mL
O=C(CSc1nnc(-c2ccc3ncccc3c2)o1)Nc1ccc(Br)cc1,-,50 µg/mL
c1ccc(-c2n[nH]c(CN3CCc4sccc4C3)n2)cc1,NCIM 1196,>200 µg/mL
N#Cc1ccc(Nc2nc(Oc3cccc4cccnc34)nc(N3CCN(c4ncccn4)CC3)n2)cc1C(F)(F)F,MTCC 282,12.5 µg/mL
Cc1cccnc1N1C(=O)CSC1c1c(C)cccc1C,NCIM 742,71 µg/mL
c1ccc(N2CCC(n3cc(CN4CCc5sccc5C4)nn3)CC2)cc1,NCIM 1196,100 µg/mL
c1ccc(Cc2nc(CN3CCc4sccc4C3)n[nH]2)cc1,NCIM 1196,>200 µg/mL
COc1ccc2nc(NC(=O)CSc3nnc(-c4ccc5ncccc5c4)o3)sc2c1,-,50 µg/mL
CC(C)N1CCN(c2nc(Nc3ccc(C#N)c(C(F)(F)F)c3)nc(Oc3cccc4cccnc34)n2)CC1,MTCC 282,50 µg/mL
Nc1ccccc1Cc1nc(CN2CCc3sccc3C2)n[nH]1,NCIM 1196,150 µg/mL

A second listing of 3 rows from above:

compound | strain | result
COc1cc(-c2nnc(Sc3nc(Nc4ccc(C#N)cc4)nc(Oc4cc(=O)n(C)c5ccccc45)n3)o2)cc(OC)c1OC | MTCC 2825 | 25 µg/mL
O=C(c1ccccc1)N1CCC(n2cc(-c3nc(-c4ccccc4)n[nH]3)nn2)CC1 | - | >200 µg/mL
COc1ccc2nc(NC(=O)CSc3nnc(-c4ccc5ncccc5c4)o3)sc2c1 | - | 50 µg/mL

Lines come from different laboratories, so protocols vary.